Molecular target: T1, BDBV GP (Bundibugyo ebolavirus (BDBV))
T1 construct: also called Bundibugyo ebolavirus GP
Experiment: ELISA, purified antibody on coated GP (1 µg/mL)

B1: monoclonal antibody 2G1 (antibody, V domains shown)
VH: EVQLVESGGGLVKRGGSLRLSCVVSGYTFGGYSMHWVRQAPGKGLEWVSGISSSSYYKYYADSVKGRFTISRDNAKNSLYLQMNSLRAEDTAVYYCARDMGYCSGGSCPNFDFWGQGTTVTVSS
VL: DIQMTQSPSSLSASVGDRVTITCRTSQSISNYLNWYQQIPGKAPKLLISTASNLHSGVSSRFSGSGSGTHFTLTISSLQPEDFATYYCQQSYSTPSFGQGTKVEIKR
notes: also called 2G1-WT; wild-type 2G1
  EC50: 7.5 ng/mL

Source: patent publication US20240254201A1 (ACADEMY OF MILITARY MEDICAL SCIENCE PLA, published 2024)
